Experimental data: PubChem BioAssay AID1259414 (Drosophila RNAi Screening Center, 2018)
The deposit covers about 24,000 reagents; below is an unselected part of those with a known target gene and a result. Of all reagents, about 1,210 (5%) got an active call. 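Inactive calls also include excluded dsRNAs with several or no targets, genes unexpressed in JW18, and well A1, regardless of score.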 Names joined by + are all predicted targets of the reagent.

Purpose: 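Host factors increasing or decreasing Wolbachia levels in cultured fly cells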 (primary screen)
System: Drosophila JW18 cells infected with Wolbachia
Knock-down reagent: long dsRNA against Drosophila genes, 0.25 µg dsRNA per well of a 384-well plate
Timing: 5 days
Treatment: cells persistently infected with Wolbachia before knock-down; no added drug
Measurement: 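Imaged fluorescence in situ signal for Wolbachia 23S rRNA per DAPI-counted host cell, given as a robust z-score within each plate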
Reading the numbers: Wolbachia per cell robust z: higher = more Wolbachia per host cell than the plate typical
Hit rule: 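Active if absolute robust z reaches 1.5 in two or more of three replicates, leaving out multi- or no-target dsRNAs, genes unexpressed in JW18 and A1 wells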

target	DRSC id	Wolbachia per cell robust z, rep 1	Wolbachia per cell robust z, rep 2	Wolbachia per cell robust z, rep 3	outcome
CG9257	DRSC03173	-0.4	-5.92	0.305	inactive
CG9257	DRSC41372	-0.727	-1.32	-0.774	inactive
CG5131	DRSC02817	-1.32	-6.6	-0.0681	inactive
CG11550	DRSC14326	-0.0814	0.777	-1.71	inactive
CG6678	DRSC16092	-0.85	0.181	1.15	inactive
CG6678	DRSC27398	-0.222	-0.62	-1.16	inactive
Obp99b	DRSC16264	0.427	0.273	0.333	inactive
Obp99b	DRSC27754	0.217	0.197	0.944	inactive
CG31300	DRSC14657	0.114	0.55	-1.7	inactive
CG31300	DRSC25696	-1.36	1.36	-0.0908	inactive
CG9312	DRSC16471	-0.149	-0.676	0.748	inactive
CG30080 + CG42662	DRSC05571	-0.0744	0.326	0.368	inactive
sns	DRSC07687	1.06	1.03	0.725	inactive
sns	DRSC07688	-2.43	-2	-1.68	active
sns	DRSC07689	0.599	-0.348	-0.535	inactive
sns	DRSC07691	-0.646	-0.601	0.877	inactive
CG32295	DRSC23259	0.675	-1.6	-0.763	inactive
lncRNA:CR13130 + bib	DRSC24888	0.881	0.864	0.997	inactive
CG12546	DRSC11676	-0.602	-0.0992	-0.223	inactive
CG8245	DRSC04901	0.97	0.627	0.838	inactive
shop	DRSC20030	1.25	-1.04	-0.997	inactive
shop	DRSC26764	-8.49	-0.181	-5.62	active
DCTN4-p62	DRSC06101	-0.165	-0.0103	-0.99	inactive
DCTN4-p62	DRSC27900	0.707	1.07	-0.758	inactive
CG3108	DRSC18280	-2.2	-1.48	-3.11	inactive
CG33234	DRSC37784	0.596	0.417	-0.0608	inactive
achi	DRSC07276	-4.83	0.687	0.605	inactive
achi	DRSC24803	0.441	-4.08	-1	inactive
CR33255 + hpRNA:CR32207 + CR42842 + 1 more	DRSC09617	-0.919	-1.17	0.651	inactive
RpL18A	DRSC07538	1.01	1.57	1.35	inactive
l(3)72Dr	DRSC10478	0.622	1.15	0.547	inactive
hb	DRSC16963	-0.203	0.839	1.11	inactive
hb	DRSC27856	0.0646	-0.574	-1.13	inactive
CG11099 + CG13869	DRSC06428	0.582	0.0247	0.477	inactive
Cyp12b2	DRSC07364	-0.344	-1.17	-0.859	inactive
Deaf1	DRSC11143	-1.03	0.0548	-2.44	inactive
Deaf1	DRSC22786	-0.299	-1.06	-0.347	inactive
Deaf1	DRSC25984	-0.504	-0.201	-0.489	inactive
CG32797	DRSC25152	-0.299	0.607	-0.885	inactive
SmydA-8	DRSC22064	-1.64	-0.61	0.943	inactive
SmydA-8	DRSC22263	-1.78	-0.59	0.174	inactive
CG34054	DRSC37910	1.72	1.07	0.763	inactive
lncRNA:roX2	DRSC22237	1.16	1.13	0.784	inactive
lncRNA:roX2	DRSC27049	0.798	0.161	1.25	inactive
Tsp39D	DRSC03099	0.915	-4.31	-0.327	inactive
CG17075	DRSC00483	1.07	1.67	-1.03	inactive
CG17075	DRSC26505	0.854	0.502	1.3	inactive
NT5E-2	DRSC06893	0.105	0.0619	0.059	inactive
CG6041	DRSC18396	-0.0352	-1.62	-0.784	inactive
CG6041	DRSC24234	-0.214	-0.532	0.785	inactive
CR12842	DRSC06188	0.596	0.221	-2.09	inactive
CR12842	DRSC24909	0.476	1.23	-9.67	inactive
lva	DRSC18403	-0.264	-0.626	0.513	inactive
lva	DRSC27594	1.59	-0.747	0.83	inactive
CG32264	DRSC08061	0.279	0.282	0.699	inactive
CG32264	DRSC08167	1.15	0.444	-2.42	inactive
CG32264	DRSC08169	0.0535	0.455	-0.724	inactive
CG32264	DRSC08285	-0.871	-4.79	-1.18	inactive
CG32264	DRSC25774	-1.09	-0.69	-1.26	inactive
CG14332	DRSC14811	0.229	-0.419	0.491	inactive
Bap60	DRSC19337	0.992	1.28	-0.482	inactive
Efhc1.2	DRSC06027	-2.96	1	0.599	inactive
Hsp67Ba	DRSC11191	-0.674	0.797	-0.166	inactive
Hsp67Ba	DRSC23678	-1.42	-5.79	0.729	inactive
BCAS2	DRSC15693	-0.431	0.0561	-0.982	inactive
BCAS2	DRSC28064	-0.611	-0.0414	-0.0483	inactive
MFS14	DRSC06524	0.714	0.713	1.29	inactive
MFS14	DRSC29787	0.558	1.12	0.466	inactive
